Measured values as given in PMC8050947, “Free fatty acid binding pocket in the locked structure of SARS-CoV-2 spike protein” (2020).

Target: angiotensin-converting enzyme 2 (ACE2) (UniProt Q9BYF1)
Experiment: SPR

Substance: SARS-CoV-2 spike (S) glycoprotein, secreted trimer produced in insect cells (natural protein)
- Kd: 0.7 nM and 1.4 nM

Where “and” joins values, the source holds several entries; their conditions need not be identical. Equal values may be shown once.
